A mixed list of measured activities; the numbers were collected in NIAID ChemDB.

Shared fields: whole-cell or culture tests; agent: HIV-1; read-out: EC50

Rows are shuffled and stem from different studies. ECn: concentration that inhibits the pathogen or its effect by n%. An empty or dashed field is not shown. a–b is a range or a potency band.

{"SMILES": "CN(C)C1COCCn2c1nc(C(=O)NCc1ccc(F)cc1)c(O)c2=O", "read by": "p24", "cell line": "MT-4", "result": "<50 µM"}
{"SMILES": "CCOC(=O)c1cc(C(=C2CCN(C(=O)C(=O)c3c[nH]c4c(-n5cnc(C)n5)ncc(OC)c34)CC2)c2ccccc2)n[nH]1", "read by": "luciferase", "cell line": "HeLa", "result": "<1 µM"}
{"SMILES": "N#Cc1cc2[nH]c3ccccc3c2n(-c2ccc([N+](=O)[O-])cc2)c1=O", "read by": "cytopathic effect / MTT", "cell line": "MT-4", "changes": "RT-V106A F227L", "strain": "G", "result": "0.63 µM"}
{"SMILES": "Cc1ccnc2c1NC(=O)c1cccnc1N2C1CC1", "read by": "p24 / ELISA", "cell line": "MT-4", "strain": "SF33", "result": "0.068 µM"}
{"SMILES": "Cc1nc2ccccc2c(-c2cc(F)c3c(c2C)CCCO3)c1[C@H](OC(C)(C)C)C(=O)O", "read by": "luminescence", "cell line": "MT-4", "changes": "V126I", "strain": "NL4-3", "result": "0.019 µM"}
{"SMILES": "CCCCc1cccc(-c2nc(-c3ccc(N4C(=O)C=CC5C4c4ccccc4N5C)cc3)no2)c1", "read by": "cytopathic effect / MTT", "cell line": "MT-4", "strain": "LAI", "result": ">32 µM"}
{"SMILES": "CCN1c2ncc(CCOc3ccc(C(=O)Nc4ccc(CC(=O)O)cc4)cc3C)cc2C(=O)Nc2c(C)ccnc21", "read by": "p24", "cell line": "C8166", "changes": "RT-K103N Y181C", "result": ">0.05 µM"}
{"SMILES": "COc1ncc(OC)c2c(C(=O)C(=O)N3CCC(=C(C#N)c4c(C)sc(C)c4C)CC3)c[nH]c12", "read by": "luciferase", "cell line": "HeLa", "result": ">5 µM"}
{"SMILES": "Cn1c2ccccc2c2c1cc(C#N)c(=O)n2-c1ccc([N+](=O)[O-])cc1", "read by": "cytopathic effect / MTT", "cell line": "MT-4", "strain": "LAI WT", "result": "0.03 µM"}
{"SMILES": "COc1cnc(-n2ccc(C)n2)c2[nH]cc(C(=O)C(=O)N3CCC(=C(c4ccccc4)c4ccc(F)cc4)CC3)c12", "read by": "luciferase", "cell line": "HeLa", "result": "<1 µM"}
{"SMILES": "CCN1c2ccccc2C2C1C=C(C#N)C(=O)N2c1ccc([N+](=O)[O-])cc1", "read by": "cytopathic effect / MTT", "cell line": "MT-4", "strain": "LAI", "result": "<1 µM"}
{"SMILES": "CC1CC(C)CN(S(=O)(=O)c2ccccc2[N+](=O)[O-])C1", "read by": "GFP / fluorescence", "cell line": "HeLa", "strain": "2AG", "result": "9.44 µM"}
{"SMILES": "CC(C)=CCOc1cc(NC(=S)c2ccsc2C)ccc1Cl", "read by": "p24", "cell line": "CEM + CEM-SS", "changes": "RT-Y181C", "strain": "NL4-3", "result": "0.03 µM"}
{"SMILES": "CN(C)C(=O)C(=O)N1CCn2c(nc(C(=O)NCc3ccc(F)cc3)c(O)c2=O)C1", "read by": "p24", "cell line": "MT-4", "result": "<50 µM"}
{"SMILES": "COc1cccc(-c2nc(-c3ccc(N4C(=O)C=CC5C4c4ccccc4N5C)cc3)no2)c1", "read by": "cytopathic effect / MTT", "cell line": "MT-4", "strain": "LAI", "result": ">32 µM"}
{"SMILES": "COc1cnc(-n2ccnn2)c2[nH]cc(C(=O)C(=O)N3CCC(=C(c4ccccc4)c4cccc(CO)c4)CC3)c12", "read by": "luciferase", "cell line": "HeLa", "result": "<1 µM"}
{"SMILES": "CC(C)C1=C2[C@H]3CC[C@@H]4[C@@]5(C)CC[C@H](OC(=O)[C@H]6C[C@@H](C(=O)O)C6(C)C)C(C)(C)[C@@H]5CC[C@@]4(C)[C@]3(C)CC[C@@]2(CC(=O)NC2(c3ccc(Cl)cc3)CC2)CC1=O", "read by": "p24 / ELISA", "cell line": "MT-2", "strain": "92HT599", "result": "<1 µM"}
{"SMILES": "CC1(C)CC=C(c2cn(-c3nccc(C(=O)NC4CCC(N5CC6CCC(C5)O6)CC4)n3)c3ccc(F)c([C@H](OC(C)(C)C)C(=O)O)c23)CC1", "read by": "luminescence", "cell line": "MT-4", "changes": "T124V", "strain": "NL4-3", "result": "0.0016 µM"}
{"SMILES": "N#CC1=CC2Nc3ccccc3C2N(c2ccc(C#N)cc2)C1=O", "read by": "cytopathic effect / MTT", "cell line": "MT-4", "strain": "LAI", "result": ">32 µM"}
{"SMILES": "CC(C)CN(C[C@@H](O)[C@H](Cc1ccccc1)NC(=O)O[C@H]1CO[C@H]2OCC[C@H]21)S(=O)(=O)c1ccc2nc(NC3CCN(C4CCCC4)CC3)sc2c1", "read by": "reporter gene", "cell line": "MT-4", "changes": "V32I L76V", "strain": "T13436", "result": "5.1 nM"}
{"SMILES": "CC(C)C1=C2[C@H]3CC[C@@H]4[C@@]5(C)CC[C@H](OC(=O)[C@H]6C[C@@H](C(=O)O)C6(C)C)C(C)(C)[C@@H]5CC[C@@]4(C)[C@]3(C)CC[C@@]2(CCNCC(CCCCN)NC(=O)c2ccc(Cl)cc2)CC1=O", "read by": "p24 / ELISA", "cell line": "MT-2", "strain": "92HT599", "result": "<1 µM"}
{"SMILES": "CCN1c2ncc(CCOc3ccc(-c4ccc(CCC(=O)O)cc4)cc3C)cc2C(=O)N(C)c2cccnc21", "read by": "p24", "cell line": "C8166", "strain": "IIIB", "result": "<0.01 µM"}
{"SMILES": "CC(C)C1=C2[C@H]3CC[C@@H]4[C@@]5(C)CC[C@H](OC(=O)[C@H]6C[C@@H](C(=O)O)C6(C)C)C(C)(C)[C@@H]5CC[C@@]4(C)[C@]3(C)CC[C@@]2(CC(=O)NC2(CNC(=O)c3ccc(Cl)cc3)COC2)CC1=O", "read by": "p24 / ELISA", "cell line": "MT-2", "strain": "92HT599", "result": "<1 µM"}
{"SMILES": "CCCc1cc(=O)oc2c3c(c4c(c12)OC(C)(C)CC4)O[C@H](C)[C@@H](C)C3=O", "read by": "cytopathic effect / XTT", "cell line": "MT-2", "strain": "IIIB", "result": "2.62 µM"}
{"SMILES": "COc1cnc(-c2cnccn2)c2[nH]cc(C(=O)C(=O)N3CCC(=C(c4ccccc4)c4cnccn4)CC3)c12", "read by": "luciferase", "cell line": "HeLa", "result": "<1 µM"}
{"SMILES": "CN1CCN(C(=O)C(=O)N(C)C2COCCn3c2nc(C(=O)NCc2ccc(F)cc2)c(O)c3=O)CC1", "read by": "p24", "cell line": "MT-4", "result": "<1 µM"}
{"SMILES": "COP(=O)(c1cc(C)cc(CCC#N)c1)c1c(C(N)=O)[nH]c2ccc(Cl)cc12", "read by": "p24 / ELISA", "cell line": "MT-4", "strain": "NL4-3", "result": "0.0017 µM"}
{"SMILES": "CC(C)C1=C2[C@H]3CC[C@@H]4[C@@]5(C)CC[C@H](OC(=O)[C@H]6C[C@@H](C(=O)O)C6(C)C)C(C)(C)[C@@H]5CC[C@@]4(C)[C@]3(C)CC[C@@]2(CC(=O)NCC(C)(C)NC(=O)c2ccc(Cl)cc2OCCN(C)C)CC1=O", "read by": "p24 / ELISA", "cell line": "MT-2", "strain": "92HT599", "result": "<1 µM"}
{"SMILES": "N#CC(=C1CCN(C(=O)C(=O)c2c[nH]c3ccccc23)CC1)c1ccccc1", "read by": "luciferase", "cell line": "HeLa", "result": "1–5 µM"}
{"SMILES": "COc1ccc(-c2nc(-c3ccc(N4C(=O)C=CC5C4c4ccccc4N5C)cc3)no2)cc1OC", "read by": "cytopathic effect / MTT", "cell line": "MT-4", "strain": "LAI", "result": "1–32 µM"}
{"SMILES": "N#CC1=CC2Nc3ccccc3C2N(c2ccc([N+](=O)[O-])cc2)C1=O", "read by": "GFP / fluorescence", "cell line": "HeLa", "strain": "F-93BR20", "result": "0.034 µM"}
{"SMILES": "CCN1c2ncc(CCOc3ccc(-c4ncc[nH]4)cc3C)cc2C(=O)N(C)c2cccnc21", "read by": "p24", "cell line": "C8166", "changes": "RT-K103N Y181C", "result": "<0.01 µM"}
{"SMILES": "CN(C)C(=O)C(=O)N(C)C1CN(CC2CC2)CCn2c1nc(C(=O)NCc1ccc(F)cc1)c(O)c2=O", "read by": "p24", "cell line": "MT-4", "result": "<1 µM"}
{"SMILES": "CCN1c2ncc(CCOc3ccc(-c4ccc(C(=O)O)s4)cc3C)cc2C(=O)N(C)c2cccnc21", "read by": "p24", "cell line": "C8166", "changes": "RT-K103N Y181C", "result": "0.01–0.05 µM"}
{"SMILES": "Cc1nnc(C(=C2CCN(C(=O)C(=O)c3c[nH]c4c(Cl)ccnc34)CC2)c2ccccc2)o1", "read by": "luciferase", "cell line": "HeLa", "result": "<1 µM"}
{"SMILES": "Cc1nnc(C(=O)N(C)C2COCCn3c2nc(C(=O)NCc2ccc(F)cc2)c(O)c3=O)o1", "read by": "p24", "cell line": "MT-4", "result": "<1 µM"}
{"SMILES": "CC(C)C1=C2[C@H]3CC[C@@H]4[C@@]5(C)CC[C@H](OC(=O)[C@H]6C[C@@H](C(=O)O)C6(C)C)C(C)(C)[C@@H]5CC[C@@]4(C)[C@]3(C)CC[C@@]2([C@@H](O)CNC[C@@H](CO)NC(=O)c2ccc(Cl)cc2)CC1=O", "read by": "p24 / ELISA", "cell line": "MT-2", "strain": "92HT599", "result": "<1 µM"}
{"SMILES": "COc1cc(-c2ccc(N=Nc3ccc4c(S(=O)(=O)O)cc(S(=O)(=O)O)c(N)c4c3O)c(OC)c2)ccc1N=Nc1ccc2c(S(=O)(=O)O)cc(S(=O)(=O)O)c(N)c2c1O", "read by": "cytopathic effect / XTT", "cell line": "CEM + CEM-SS", "strain": "PM16", "result": "0.6 µM"}
{"SMILES": "CC1(C)c2nc(C(=O)NCc3ccc(F)cc3)c(O)c(=O)n2CCN1CC(=O)O", "read by": "p24", "cell line": "MT-4", "result": "<1 µM"}
{"SMILES": "N#Cc1cc(Cl)cc(Oc2c(Br)ccc(CC(=O)Nc3ccc(S(N)(=O)=O)cc3Cl)c2F)c1", "cell line": "MT-4", "changes": "M230L", "result": "0.0006 µM"}
{"SMILES": "Cc1cncc(C(=O)NC(C)(C)C(=O)NC[C@H](O)[C@@]23CC[C@]4(C)[C@H](CC[C@@H]5[C@@]6(C)CC[C@H](OC(=O)[C@H]7C[C@@H](C(=O)O)C7(C)C)C(C)(C)[C@@H]6CC[C@]54C)C2=C(C(C)C)C(=O)C3)n1", "read by": "p24 / ELISA", "cell line": "MT-2", "strain": "92HT599", "result": "<1 µM"}

A second listing of 5 rows from above:

| SMILES | read by | cell line | changes | strain | result |
|---|---|---|---|---|---|
| CCCc1cc(=O)oc2c3c(c4c(c12)OC(C)(C)CC4)O[C@H](C)[C@@H](C)C3=O | cytopathic effect / XTT | MT-2 |  | IIIB | 2.62 µM |
| N#CC1=CC2Nc3ccccc3C2N(c2ccc([N+](=O)[O-])cc2)C1=O | GFP / fluorescence | HeLa |  | F-93BR20 | 0.034 µM |
| CCN1c2ncc(CCOc3ccc(C(=O)Nc4ccc(CC(=O)O)cc4)cc3C)cc2C(=O)Nc2c(C)ccnc21 | p24 | C8166 | RT-K103N Y181C |  | >0.05 µM |
| CN1CCN(C(=O)C(=O)N(C)C2COCCn3c2nc(C(=O)NCc2ccc(F)cc2)c(O)c3=O)CC1 | p24 | MT-4 |  |  | <1 µM |
| CCOC(=O)c1cc(C(=C2CCN(C(=O)C(=O)c3c[nH]c4c(-n5cnc(C)n5)ncc(OC)c34)CC2)c2ccccc2)n[nH]1 | luciferase | HeLa |  |  | <1 µM |